Measurements reported in PubChem BioAssay AID1224833 (University of Georgia, 2016)
This is one part, drawn at random, of about 12,000 reagents. In the full data, about 5,600 (46%) got an active call. 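Active calls cover z-scores past 1 in both directions, so they include lowered as well as raised rotavirus replication.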 Entries without a mark were called inactive.

Assay: 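Host factors restraining rotavirus as candidate antiviral genes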 (primary screen)
System: monkey MA104 kidney cells
Knock-down reagent: siRNA pool against human genes, 50 nM
Duration: 48 h knock-down before infection; read 24 h after infection
Challenge: infection with rotavirus strain RV3 two days after transfection; infectious dose for this stage not given
Measurement: 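Rotavirus antigen per well by fluorescent immunoassay, normalised to non-targeting control wells on each plate and given as a standard z-score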
Scale: z-score vs non-targeting control: higher = more rotavirus replication than with non-targeting control
Call rule: In these data the active calls have z-score vs non-targeting control at about -1 or lower, or at about 1 or higher
Meaning of the calls: active = z-score beyond 1 either way; inactive = z-score within 1 of zero

gene	z-score vs non-targeting control
ENTHD1	1.14 (active)
PPP4R2	-1.12 (active)
NCALD	-0.515
SUMF2	-1.13 (active)
PRB4	-1.97 (active)
TBL1XR1	1.1 (active)
EVC2	0.755
SCO2	-0.387
ARL11	-0.189
GNG8	0.422
ALDH4A1	-0.87
FANCI	0.785
HTATIP2	-1.18 (active)
CDC37	0.136
SUMF1	-0.964
PRODH2	-0.632
PCDHA2	-0.19
GREM1	-2.01 (active)
PPFIBP1	0.0455
CUZD1	-1.28 (active)
PAM	1.94 (active)
WHAMM	0.523
DNAH1	-0.918
FAM227B	-0.469
C1QTNF5	-0.783
C1QTNF1	0.493
ACTA1	-1.14 (active)
TIMM10	0.944
TMEM50B	0.249
QPCTL	-0.631
OR4F21	-1.16 (active)
RBM28	1.98 (active)
CPEB3	-1.6 (active)
WDR17	-1.93 (active)
FKBP8	1.17 (active)
EVX1	0.689
FAM110A	0.0843
NPPB	-2.24 (active)
SPDL1	-2 (active)
SF3B2	0.951
MICOS13	-0.215
TMED5	-0.899
UBAP2L	-0.867
IFNL2	0.834
RPL27	2.32 (active)
OR4D1	-1.46 (active)
SCML4	-0.325
ABLIM1	-0.638
TUBA1B	-1.91 (active)
TP53	-2.63 (active)
PICK1	-0.979
GPC1	-2.11 (active)
QARS1	-1.62 (active)
SEPTIN10	1.1 (active)
FKBP3	-2.48 (active)
ATOX1	-0.809
MMP3	0.823
PRXL2C	0.555
OR2T8	-1.5 (active)
HCCS	1.36 (active)
SLC25A27	-1.39 (active)
CAMSAP3	1.48 (active)
LRRC70	0.523
LPAR5	-1.09 (active)
MRGPRE	-1.03 (active)
SLC39A9	-2.07 (active)
SIT1	2.19 (active)
C3AR1	-0.697
EZR	0.48
GPC6	-1.4 (active)
SYNRG	-0.204
DIXDC1	-1.24 (active)
NOTCH4	-1.18 (active)
CNDP2	0.769
ZNF223	-0.106
ST8SIA1	1.09 (active)
ITGA8	-2.04 (active)
MS4A6E	0.911
FGFR1OP2	-2.1 (active)
CCL2	-1.03 (active)
H4C6	0.674
ARL4C	-0.157
EVA1B	-1.45 (active)
CPNE8	-1.06 (active)
VPS33B	-1.6 (active)
CTC1	1.76 (active)
ZSWIM7	-0.0944
VCX3A	-1.4 (active)
RTCA	1.81 (active)
NDUFAF3	2.89 (active)
PCCA	0.981
ENOSF1	-0.687
ARID5B	-0.423
GOLM2	-2.88 (active)
TMEM183BP	-1.2 (active)
ANO8	-0.541
SSC4D	-1.16 (active)
C4orf46	0.973
ZNF468	1.79 (active)
OR5AU1	0.31
PARK7	-0.811
ABCE1	-0.864
KIF13A	-0.647
C6orf62	-1.43 (active)
MEN1	2.1 (active)
RORB	-0.747
COL9A1	-2.69 (active)
TMEM38B	-0.659
SMUG1	0.704
KRT6B	0.313

In a second layout: 14 of the entries above
| gene | z-score vs non-targeting control |
| --- | --- |
| SF3B2 | 0.951 |
| MICOS13 | -0.215 |
| TMED5 | -0.899 |
| UBAP2L | -0.867 |
| IFNL2 | 0.834 |
| RPL27 | 2.32 (active) |
| OR4D1 | -1.46 (active) |
| SCML4 | -0.325 |
| ABLIM1 | -0.638 |
| TUBA1B | -1.91 (active) |
| TP53 | -2.63 (active) |
| PICK1 | -0.979 |
| GPC1 | -2.11 (active) |
| QARS1 | -1.62 (active) |
